The test system of this data set is RSV strain A2. Nature of the data set: CPE inhibition assay, visual examination, RSV. It is filed as cell-based. The conditions noted are these: for SI50: visual examination, RSV, S.I. = 50% cytotoxic dose / EC50. As to the method: The efficacy of celgosivir and castanospermine against RSV and human rhinovirus-14 was assessed in vitro. For RSV studies, embryonic African green monkey kidney cells (MA-104) were grown in minimal essential medium (MEM) supplemented with 0.1% NaHCO3 and 10% fetal bovine serum. When performing antiviral assays, serum was reduced to 2% and […] gentamicin was added to the medium. RSV strain A2 was used for the studies. For rhinovirus studies, the HeLa Ohio cell line was used in place of MA-104 cells.
CPE inhibition assays with visual quantification of antiviral activity and cytotoxicity were performed as described by Sidwell and Huffman (1971) with slight modifications. Sidwell, R. W. and Huffman, J. H. (1971) Use of disposable micro-tissue culture plates for antiviral and interferon induction studies. Appl. Microbiol. 22, […]. […] All compounds were assayed for virus inhibition in quadruplicate and for cytotoxicity in duplicate. For rhinovirus studies, Pirodavir was applied at a concentration of 0.001-1 μg/ml as the positive control compound. For RSV studies, the positive control compound was Ribavirin applied at a concentration of 0.5-500 μg/ml. For each compound, two wells were set aside as uninfected, untreated cell controls per test and four wells per test received virus only and represented controls for virus replication. […] For all CPE-based assays, the 50% effective concentration (EC50) was calculated by regression analysis using the means of the CPE ratings at each concentration of compound. Morphological changes due to compound cytotoxicity were graded on a scale of 0-5; grade 5 was defined as 100% cytotoxicity. The 50% cytotoxic dose (IC50) was calculated by regression analysis. A selective index (S.I.) was calculated for each compound (SI.=(IC50)/(EC50)).

Structures are written as SMILES. Counter-ions that a name gives are not always drawn.

Take `CCCC(=O)O[C@H]1CN2CC[C@H](O)[C@@H]2[C@@H](O)[C@@H]1O` [Celgosivir HCL]: the “SI50 against RSV” value is “at least 8.1” and the SI50 is greater than 8.1. Compound `NC(=O)c1ncn([C@@H]2O[C@H](CO)[C@@H](O)[C@H]2O)n1` [Ribavirin, reference compound] returned an SI50 of 85.

The record behind these values is patent US12569473B2, “Methods to treat respiratory infection utilizing castanospermine analogs” (60 Degrees Pharmaceuticals, Inc., priority 2022, dated 2026).
